# Results taken from patent US20230256111A1, “C[…] ADC OR AN AOC COMPRISING A VHH, AND A SAPONIN OR A LIGAND-SAPONIN CONJUGATE” (SAPREME TECHNOLOGIES B.V., priority 2020, published 2023).
# Tested on: human A431 tumor cells (xenograft)
# Experiment: A431 xenograft tumor model in nude mice, tumor volume
# Format: in vivo, mouse
# Settings: Example 13, second experiment: 25 mg/kg cetuximab-(Cys-L-SO1861)^4 i.p. + 0.03 mg/kg toxin conjugate i.v., day 9, 14, then weekly (FIG. 21)
# Protocol: Female Balb/c nude mice were injected subcutaneously with a suspension of human A431 tumor cells. Under the skin of the mice, a human epidermal carcinoma developed in the xenograft animal tumor model. After injection of the tumor cells, the xenograft tumor was allowed to develop to a size of approximately 170-180 mm^3. The A431 tumor cells have the following characteristics: high EGFR expressors, medium 0071 expressors, low HER2 expressors.
# In Table 6A, the results of the treatment of control mice and tumor-bearing mice are presented. Tumor-bearing mice were treated with the indicated antibodies directed to either human Her2/neu, human EGFR, or human CD71, which are cell-surface receptors on the xenograft tumor. Cetuximab was covalently conjugated with saponin SO1861. […] The dose of the ADCs was sub-optimal in the tumor model. That is to say, from previous experiments, it was established at which sub-optimal dose of the ADCs no tumor-regression or arrest of tumor growth would be observable.
# The 2 target 2-components system (2T2C) is the combination treatment of mAb1-SO1861 and mAb2-protein toxin, (FIG. 1B-D).
substance,measurement,value
Cetuximab: monoclonal antibody recognizing and binding human EGFR,tumor response,"only tumor growth inhibition, but no regression"
